Results as given in patent publication US20250042935 (published 2025).

Experiment: general procedure: Fmoc solid-phase peptide synthesis; pre-loaded Fmoc-amino acid Wang resins (~0.34 mmol/g loading); DIC, oxyma, 2,4,6-collidine
Settings: late stage modification step

Substance | step yield [%]
Pyr-HWSYGLRPG | 78
QDEGSEATGFLPAAGEKTSGPLGNLAEELNGYSRKKGGFSFRF | 73
SYSMEHFRWGKPVGKKRRPVKVYP | 63

Same assay, conditions: late stage modification step; run 1

Substance | step yield
VPLPAGGGTVLTKMYPRGNHWAVGHLM | 48% and 68%
HGEGTFTSDLSKQMEEEAVRLFIEWLKNGGPSSRHYLNLVTRQRY | 56% and 49%
HAEGTFTSDVSSYLEGQAAKEFIAWLVKGR | 53% and 70%

“And” between values parts separate entries of the source, which are not always exact repeats. Equal values may be shown once.
